# Experimental data from article PMC9017349, “Spiropyrimidinetriones: a Class of DNA Gyrase Inhibitors with Activity against Mycobacterium tuberculosis and without Cross-Resistance to Fluoroquinolones” (Antimicrobial Agents and Chemotherapy, 2022).
# Key:
# [1] = test system: M. tuberculosis Erdman pFCA-LuxAB (Erdman Lux); conditions: BALB/c mice, 300 mg/kg p.o. daily, 12 days
# [2] = test system: M. tuberculosis Erdman; assay: microbe, parasite or virus in culture; assay type: cell-based; conditions: Mycobacterium tuberculosis, 7H9 medium-ADC-glycerol, read-out: MIC against the Erdman strain
# [3] = test system: M. tuberculosis ΔcydA; assay type: cell-based
# [4] = test system: M. tuberculosis H37Rv; assay type: cell-based; conditions: CARA
compound,measurement,setting,value
Cc1nnc(-c2noc3c(F)c4c(cc23)CC2(C(=O)NC(=O)NC2=O)[C@H]2[C@H](C)O[C@H](C)CN42)o1 [Compound 22],decline in lung CFU burdens relative to the untreated controls,[1],0.61 log10
same,MIC,[2],4 µM
same,"MIC90, ΔcydA",[3],2.0 µM
same,plasma Cmax over the serum-shifted MIC of M. tuberculosis Erdman,300 mg/kg,~20 fold
same,free AUC/MIC,based on the untreated mouse PK,43
same,MBC relative to MIC,[4],2 fold
